A mixed list of measured activities; the numbers were collected in NIAID ChemDB.

All rows: tests in culture; agent: Candida albicans

Blank or dashed fields: not listed here.

compound | read by | read-out | strain or isolate | result
CC[C@@H](C)n1ncn(-c2ccc(N3CCN(c4ccc(OC[C@H]5CO[C@](Cn6cncn6)(c6ccccn6)O5)cc4)CC3)cc2)c1=O | - | MIC | 21 | 39 µg/mL
Cc1cc(OCc2nnc3n2N=C(c2cc(F)c(Cl)cc2Cl)/C(=C/c2ccc(Cl)cc2Cl)S3)ccc1Cl | - | MIC | - | 12.5 µg/mL
Cl.N#CCC1=NC2(CCCC2)Cc2ccccc21 | - | MIC | 264/624 | 250 µg/mL
CCCCCCC(=O)O[C@@H]1Cc2c(O)cc(O)cc2O[C@@H]1c1ccc(O)c(O)c1 | - | MIC | ATCC 10231 | 128 µg/mL
COc1ccc(-c2nc3c(CN)c(-c4ccc(C)o4)c(CN)c(=O)n3[nH]2)cc1 | - | MIC | - | 0.19 µg/mL
Cn1cccc1CC(=O)NNC(=O)NCCCCCCNC(=O)NNC(=O)Cc1cccn1C | - | MIC | - | 7.5 µg/mL
CC1(C)S[C@@H]2[C@H](NC(=O)[C@H](N)c3ccc(O)cc3)C(=O)N2[C@H]1C(=O)O | visual reading | MIC | MTCC 183 | 660 µg/mL
CN(Cc1ccc(S(=O)(=O)Nc2ccc([N+](=O)[O-])cc2)cc1)CC(O)(Cn1cncn1)c1ccc(F)cc1F | resazurin | MIC | 98 001 | 0.018 µg/mL
CCCCNc1nnc(Cn2c(C)nc3ccccc32)o1 | - | MIC | NCTC 5310 | <100 µg/mL
COc1nc2c(c(-c3ccc4c(c3)OCO4)c1C#N)CSc1ccccc1-2 | - | MIC | - | 25 µg/mL
Fc1cc(C2=Nn3c(COc4ccc(Cl)cc4)nnc3S/C2=C\c2ccc(Cl)cc2Cl)c(Cl)cc1Cl | - | MIC | - | 12.5 µg/mL
O=C(NCCNCc1ccc(-c2ccccc2)cc1)c1ccc2nc(NC(=O)C3CCCCC3)sc2c1 | - | MIC | - | >8 µM
O=C1C(Sc2ccc(F)cc2)=C(Sc2ccc(F)cc2)C(=O)c2ncccc21 | - | MIC | ATCC 10231 | 50 µg/mL
COc1ccc(/C=C2\Sc3nnc(CNc4ccc(F)c(Cl)c4)n3N=C2c2cc(F)c(Cl)cc2Cl)cc1OC | - | MIC | - | 6 µg/mL
CCC(C)CC(C)CCCCCCCCC(=O)N[C@H]1C[C@@H](O)[C@H](NCCN)NC(=O)[C@@H]2[C@@H](O)CCN2C(=O)[C@H]([C@H](O)CCN)NC(=O)[C@H]([C@H](O)[C@@H](O)c2ccc(O)cc2)NC(=O)[C@@H]2C[C@@H](O)CN2C(=O)[C@H]([C@@H](C)O)NC1=O | - | MIC | B311 | 0.125 µg/mL
N#CC1=C(N)OC2=C(CSc3ccc(Cl)cc32)C1c1cccc2ccccc12 | - | MIC | - | 100 µg/mL
COc1ccc(/C=C2\Sc3nnc(COc4ccc(Cl)cc4Cl)n3N=C2c2cc(F)c(Cl)cc2Cl)cc1OC | - | MIC | - | 6 µg/mL
Cc1ccc(C2=NN(C=O)C(c3cn(-c4ccccc4)nc3-c3ccc(Br)s3)C2)cc1 | - | MIC | - | >200 µg/mL
O=C1C=CC[C@H](/C=C/c2ccccc2)O1 | broth dilution | MIC | - | 78.3 µg/mL
COc1c(CN(C)C)cccc1C1OC(c2ccncc2)=NN1C(C)=Nc1ccccc1F | - | MIC | MTCC 227 | 3.12 µg/mL
CCOC(=O)/C=C/c1cc(C(=O)c2ccc(N(C)C)cc2)cn1C | - | MIC | - | >4 µg/mL
COc1nc2c(c(-c3ccc4ccccc4c3)c1C#N)CSc1ccc(Cl)cc1-2 | - | MIC | - | 50 µg/mL
Oc1cc2ccc1Oc1cccc(c1)CCc1ccc(O)c(c1)Oc1ccc(cc1)CC2 | broth dilution | MIC | CA10 | >512 µg/mL
CC1(C)Cc2ccccc2C(CC#N)=N1.Cl | - | MIC | 264/624 | 250 µg/mL
Fc1cc(C2=Nn3c(COc4ccc(Cl)cc4Cl)nnc3S/C2=C\c2ccc3c(c2)OCO3)c(Cl)cc1Cl | - | MIC | - | 6 µg/mL
CN(C)c1ccc(C=Nc2cccc(Cn3ccnc3)c2)cc1 | - | Mean MIC | 27 strains | 140 µg/mL
CNC1C(C)OC(O[C@H]2c3cc(C)c(C(=O)N[C@@H](CO)C(=O)O)c(O)c3-c3c(cc4c(c3O)C(=O)c3cc(OC)cc(O)c3C4=O)[C@@H]2O)C(O)C1OC1OCC(O)C(O)C1O | - | MIC | IAM4888 | 6.3 µg/mL
Cn1cc(-c2ccccc2)c(C(c2cccc3ccccc23)n2ccnc2)c1 | - | MIC50 | 33 strains | 8 µg/mL
Cn1cc(C(=O)c2ccc(F)cc2)cc1/C=C/C(=O)NO | - | MIC | - | >8 µg/mL
C=CCc1ccc(OC)c(OC)c1 | turbidity | MIC90 | 2323 | 350 µg/mL
C=C(C)[C@@H]1CCC(C)(O)[C@H](Br)CC[C@@]2(C)C(=C(C)CC[C@@H]2Br)Cc2cc(ccc2O)C(=O)O1 | - | MIC | - | >90 µM
CC(=O)c1c(O)n(Cc2ccccc2)c(-c2ccccc2)nc1=S | - | MIC | - | >100 µg/mL
O=C(CCN1C(=O)S/C(=C\c2ccccc2Cl)C1=O)Nc1ccccc1[N+](=O)[O-] | - | MIC | - | 25 µg/mL
CC(C)c1ccc(S(=O)(=O)Nc2ccc(CN(C)CC(O)(Cn3cncn3)c3ccc(F)cc3F)cc2)cc1 | resazurin | MIC | CAAL-74 | 0.12 µg/mL
O=C(Nc1nc2ccc(NC(=O)[C@@H]3CCC[C@@H](NCc4ccc5ccccc5c4)C3)cc2s1)C1CCC1 | - | MIC | - | 1.56 µM
CC(=O)Nc1ccc(CNc2cccc(Cn3ccnc3)c2)cc1 | - | Mean MIC | 27 strains | 125 µg/mL
Cc1ccc(SC2=C(Sc3ccc(C)cc3)C(=O)c3c(C)cc(Cl)nc3C2=O)cc1 | - | MIC | ATCC 10231 | 6.3 µg/mL
Cc1ccc(C2=NN(C(=O)c3ccccc3)C(c3cn(-c4ccccc4)nc3-c3ccc(Br)s3)C2)cc1 | - | MIC | - | >200 µg/mL
CCCCn1c(-c2ccccc2)nc(=S)c(C(C)=O)c1O | - | MIC | - | >100 µg/mL
Clc1cccc(C=Nc2cccc(Cn3ccnc3)c2)c1 | - | Mean MIC | 27 strains | 88.56 µg/mL
COc1ccc2cc1Oc1ccc(cc1)CCc1ccc(c(O)c1)Oc1cccc(c1)CC2 | broth dilution | MIC | CA10 | >512 µg/mL
O=C(CCN1C(=O)S/C(=C\c2ccccc2Br)C1=O)Nc1ccccc1[N+](=O)[O-] | - | MIC | - | 25 µg/mL
c1ccc(-c2c[nH]cc2C(c2cccc3ccccc23)n2ccnc2)cc1 | - | MIC90 | 33 strains | 8 µg/mL
O=C(O[C@@H]1COC(=O)c2cc(O)c(O)c(O)c2-c2c(cc(O)c(O)c2O)C(=O)OC1C1OC(=O)c2cc(O)c(O)c(O)c2-c2c(O)c(O)c(O)c3c2C(=O)OC1[C@H]3O)c1cc(O)c(O)c(O)c1 | broth dilution | MIC | SC5314 | 580 µg/mL
COc1ccc(-c2c(C#N)c(OC)nc3c2CSc2ccc(Cl)cc2-3)cc1OC | - | MIC | - | 50 µg/mL
O=C(Nc1nc2ccc(NC(=O)[C@@H]3CCC[C@@H](NCc4ccc5ccccc5c4)C3)cc2s1)C1CCCCC1 | - | MIC | - | 3.13 µM
Cc1ccc(-c2c(CN)c(=O)n3[nH]c(-c4c(O)c(O)c(O)c(O)c4CO)nc3c2CN)o1 | - | MIC | - | 12.5 µg/mL
c1ccc(-c2c[nH]cc2C(c2ccsc2)n2ccnc2)cc1 | - | Mean MIC | 33 strains | >256 µg/mL
O=C(CCN1C(=O)S/C(=C\c2ccccc2Br)C1=O)Nc1cccc(O)c1 | - | MIC | - | 25 µg/mL
Cn1cc(C(=O)c2ccccc2)cc1/C=C/C(=O)O | - | MIC | - | >250 µg/mL
COc1nc2c(c(-c3ccccc3)c1C#N)CSc1ccccc1-2 | - | MIC | - | 50 µg/mL
Nc1cccc(Cn2ccnc2)c1 | - | Mean MIC | 27 strains | 135 µg/mL
CCCCCCCCC(=O)O[C@H]1Cc2c(O)cc(O)cc2O[C@@H]1c1ccc(O)c(O)c1 | - | MIC | ATCC 10231 | 8 µg/mL
CN(Cc1ccc(S(=O)(=O)Nc2ccccc2)cc1)CC(O)(Cn1cncn1)c1ccc(F)cc1F | resazurin | MIC | 98 001 | 0.004 µg/mL
O=[N+]([O-])/C(Br)=C\c1ccc(Br)o1 | - | MIC50 | 138 isolates | 2 µg/mL
Cn1cccc1-c1n[nH]c(=O)n1CCCCCCn1c(-c2cccn2C)n[nH]c1=O | - | MIC | - | 7.5 µg/mL
COc1ccc(/C=C2\Sc3nnc(CNc4ccccc4)n3N=C2c2cc(F)c(Cl)cc2Cl)cc1OC | - | MIC | - | 12.5 µg/mL
O=C1C(Sc2ccccc2)=C(Sc2ccccc2)C(=O)c2ncccc21 | - | MIC | ATCC 10231 | 3.2 µg/mL
COC(=O)C(CC(C)C)NC1=CC(=O)c2ccccc2C1=O | - | MIC | - | >50 µg/mL
C=C(C)[C@@H]1CCC(C)(O)[C@H](Br)CC[C@@]2(C)[C@H](Cc3cc(ccc3O)C(=O)O1)C(C)=CC[C@@H]2Br | - | MIC | - | 44 µM
Clc1ccc(C(c2c[nH]cc2-c2ccccc2)n2ccnc2)s1 | - | Mean MIC | 33 strains | >256 µg/mL
COc1ccccc1-c1c(C#N)c(OC)nc2c1CSc1ccccc1-2 | - | MIC | - | 25 µg/mL
Oc1ccc2cc1Oc1ccc(cc1)CCc1ccc(c(O)c1)-c1c(O)cccc1CC2 | broth dilution | MIC | CA 02 | >512 µg/mL
COC(=O)C(CCSC)NC1=CC(=O)c2ccccc2C1=O | - | MIC | - | >50 µg/mL
O=[N+]([O-])c1ccccc1CNc1cccc(Cn2ccnc2)c1 | - | Mean MIC | 27 strains | 75 µg/mL
Clc1ccc(/C(Cn2ccnc2)=N\Nc2c(Cl)cccc2Cl)s1 | - | MIC | GB | 6.2 µg/mL
CC(C)C(=O)Nc1nc2ccc(NC(=O)[C@@H]3CCC[C@@H](NCc4ccc5ccccc5c4)C3)cc2s1 | - | MIC | - | 3.13 µM
CCC(=O)c1c(O)n(CCOC(C)=O)c(-c2ccccc2)nc1=S | - | MIC | - | >100 µg/mL
O=[N+]([O-])c1ccccc1C=Nc1cccc(Cn2ccnc2)c1 | - | Mean MIC | 27 strains | 84.59 µg/mL
COc1c(CN(C)C)cccc1C1OC(c2ccncc2)=NN1C(C)=Nc1ccccc1Cl | - | MIC | MTCC 227 | 6.25 µg/mL
CC1=CC[C@H](Br)[C@@]2(C)CC[C@@H](Br)C(C)(O)CC[C@@H](C(C)(C)Br)OC(=O)c3ccc(O)c(c3)C[C@H]12 | - | MIC | - | >75 µM
O=C(NCCCCCCNC(=O)NNC(=O)c1ccccc1)NNC(=O)c1ccccc1 | - | MIC | ATCC 90028 | 7.5 µg/mL
Cc1cc(Cl)nc2c1C(=O)C=CC2=O | - | MIC | ATCC 10231 | 50 µg/mL
CCOC(=O)/C=C/c1cc(C(=O)c2ccc(F)cc2)cn1C | - | MIC | - | >15 µg/mL
CC(C)c1ccc(NS(=O)(=O)c2ccc(CN(C)CC(O)(Cn3cncn3)c3ccc(F)cc3F)cc2)cc1 | resazurin | MIC | DSY735 | 1.05 µg/mL
COc1ccc(/C=C2\Sc3nnc(COc4ccc(Cl)cc4)n3N=C2c2cc(F)c(Cl)cc2Cl)cc1OC | - | MIC | - | 6 µg/mL
c1ccc(-c2c[nH]cc2C(c2ccc3ccccc3c2)n2ccnc2)cc1 | - | MIC90 | 33 strains | 32 µg/mL
O=C(CCN1C(=O)S/C(=C\c2ccc(Cl)cc2)C1=O)Nc1ccccc1[N+](=O)[O-] | - | MIC | - | 50 µg/mL
Cc1ccc(C(=O)/C=C/c2cn(-c3ccccc3)nc2-c2ccc(Br)s2)cc1 | - | MIC | - | >200 µg/mL
CN(Cc1ccc(NS(=O)(=O)c2ccc([N+](=O)[O-])cc2)cc1)CC(O)(Cn1cncn1)c1ccc(F)cc1F | resazurin | MIC | 98 001 | 0.03 µg/mL
COc1ccc(C2C(C#N)=C(N)OC3=C2CSc2ccccc23)cc1OC | - | MIC | - | 25 µg/mL
Cc1cc(NC(=O)CCN2C(=O)S/C(=C\c3cccc(Br)c3)C2=O)ccc1Cl | - | MIC | - | >100 µg/mL
O=C(Nc1nc2ccc(NC(=O)[C@@H]3CC[C@H](NCc4ccc5ccccc5c4)C3)cc2s1)C1CCCC1 | - | MIC | - | 6.25 µM
Cn1cc(C(=O)c2ccc(-n3ccnc3)cc2)cc1/C=C/C(=O)O | - | MIC | - | >125 µg/mL
O=C1C(Sc2cccc(F)c2)=C(Sc2cccc(F)c2)C(=O)c2ncccc21 | - | MIC | ATCC 10231 | 12.5 µg/mL

Repeating the final 9 entries:

compound | read by | read-out | strain or isolate | result
c1ccc(-c2c[nH]cc2C(c2ccc3ccccc3c2)n2ccnc2)cc1 | - | MIC90 | 33 strains | 32 µg/mL
O=C(CCN1C(=O)S/C(=C\c2ccc(Cl)cc2)C1=O)Nc1ccccc1[N+](=O)[O-] | - | MIC | - | 50 µg/mL
Cc1ccc(C(=O)/C=C/c2cn(-c3ccccc3)nc2-c2ccc(Br)s2)cc1 | - | MIC | - | >200 µg/mL
CN(Cc1ccc(NS(=O)(=O)c2ccc([N+](=O)[O-])cc2)cc1)CC(O)(Cn1cncn1)c1ccc(F)cc1F | resazurin | MIC | 98 001 | 0.03 µg/mL
COc1ccc(C2C(C#N)=C(N)OC3=C2CSc2ccccc23)cc1OC | - | MIC | - | 25 µg/mL
Cc1cc(NC(=O)CCN2C(=O)S/C(=C\c3cccc(Br)c3)C2=O)ccc1Cl | - | MIC | - | >100 µg/mL
O=C(Nc1nc2ccc(NC(=O)[C@@H]3CC[C@H](NCc4ccc5ccccc5c4)C3)cc2s1)C1CCCC1 | - | MIC | - | 6.25 µM
Cn1cc(C(=O)c2ccc(-n3ccnc3)cc2)cc1/C=C/C(=O)O | - | MIC | - | >125 µg/mL
O=C1C(Sc2cccc(F)c2)=C(Sc2cccc(F)c2)C(=O)c2ncccc21 | - | MIC | ATCC 10231 | 12.5 µg/mL

Rows are shuffled and stem from different studies. MIC50, MIC90 and the like: level of inhibition, or share of isolates inhibited.